Results as given in patent publication EP0369035A1, “AGENT FOR TREATING PANCREATITIS OR THE LIKE” (priority 1988, dated 1989).

Tested on: experimental DIC
Assay: Effect on experimental DIC and MOF (endotoxin-induced)
Type: in vivo, SD-rats
Settings: rat, 4 hours after endotoxin 10 mg/kg, tested form: 2HCl
Description: [III] Effect on experimental DIC
SD-rats, body weight of about 200 g, were starved overnight. Sodium pentobarbital was intraperioneally administered to anesthetize a rat, and then a cannula was inserted to the femoral vein, and the test substance dissolved in an injective 5% glucose solution was continually infused. Then, 10 minutes from the start of the injection, endotoxin (E. coli 0127:B8, Difco, U.S.) dissolved in physiological saline was injected through the tail vein to an amount of 10 mg/kg body weight, and 4 hours from the administration of endotoxin, the abdomen was opened, blood was obtained from the abdominal aorta, and platelets (Plt), fibrinogen (Fbg), fibrin degradation product (FDP), glutamic oxaloacetic transamirase (GOT), creatinine phosphokinase (CPK), and blood urin nitrogen (BUN) were measured.

SMILES: CC(=O)c1ccc(NC(=O)[C@H](Cc2ccc(Oc3ccc([N+](=O)[O-])cn3)cc2)NC(=O)C2CCC(CN)CC2)cc1 (stereo partly drawn)
- BUN (Dose 10 μg/kg/min infusion): 34 ± 4 mg/dL
- Fbg (Dose 10 μg/kg/min infusion): 117 ± 22 mg/dL
- GOT (Dose 10 μg/kg/min infusion): 304 ± 37 U/ml
- Plat (Dose 10 μg/kg/min infusion): 59 ± 8 x 10^4/μl
- BUN (Dose 100 μg/kg/min infusion): 32 ± 4 mg/dL
- Fbg (Dose 100 μg/kg/min infusion): 147 ± 22 mg/dL
- GOT (Dose 100 μg/kg/min infusion): 222 ± 56 U/ml
- Plat (Dose 100 μg/kg/min infusion): 53 ± 10 x 10^4/μl
- CPK (Table 5-1, Dose 100 μg/kg/min infusion): 25 ± 3 U/1
